From patent publication US20240352022A1, “GROUP OF IMB-C5 SERIES COMPOUNDS HAVING ANTI-CORONAVIRUS ACTIVITY AND APPLICATION THEREOF” (priority 2021, published 2024)

Experiments:
HCoV-229E [1] = assay: anti-HCoV-229E activity in Huh7 cells by cytopathic effect (CPE) assay; type: cell-based, Human coronavirus HCoV-229E; settings: SI=TC50/EC50, HCoV-229E in Huh7 cells
HCoV-229E [2] = assay: anti-HCoV-229E activity in Huh7.5 cells by cytopathic effect (CPE) assay; type: cell-based, Human coronavirus HCoV-229E; settings: SI=TC50/EC50, HCoV-229E in Huh7.5 cells

Structure (SMILES): COc1cccc(Cn2c(NCCO)nc3c2c(=O)n(Cc2ccncc2)c(=O)n3C)c1 [IMB-3-16, 8-((2-hydroxyethyl)amino)-7-(3-methoxybenzyl)-3-methyl-1-(pyridin-4-ylmethyl)-3,7-dihydro-1H-purine-2,6-dione]
- SI (HCoV-229E [1]): >5.20

Structure (SMILES): COc1cccc(Cn2c(N[C@@H](CO)C(C)C)nc3c2c(=O)n(C)c(=O)n3C)c1 [IMB-ZH-12, (R)-8-((1-hydroxy-3-methylbutan-2-yl)amino)-7-(3-methoxybenzyl)-1,3-dimethyl-3,7-dihydro-1H-purine-2,6-dione]
- SI (HCoV-229E [2]): >2.08
- SI (HCoV-229E [1]): >2.08

Structure (SMILES): COc1cccc(Cn2c(NCCO)nc3c2c(=O)n(CCCNC(=O)OC(C)(C)C)c(=O)n3C)c1 [IMB-3-58, tert-butyl(3-(8-((2-hydroxyethyl)amino)-7-(3-methoxybenzyl)-3-methyl-2,6-dioxo-2,3,6,7-tetrahydro-1H-purin-1-yl)propyl)carbamate]
- SI (HCoV-229E [1]): >3.00

Structure (SMILES): CCCn1c(=O)c2c(nc(NCCO)n2Cc2cccc(OC)c2)n(C)c1=O [IMB-3-47, 8-((2-hydroxyethyl)amino)-7-(3-methoxybenzyl)-3-methyl-1-propyl-3,7-dihydro-1H-purine-2,6-dione]
- SI (HCoV-229E [1]): >2.33

Structure (SMILES): COc1cccc(CCn2c(NCCO)nc3c2c(=O)n(C)c(=O)n3C)c1 [IMB-4-13, 8-((2-hydroxyethyl)amino)-7-(3-methoxyphenethyl)-1,3-dimethyl-3,7-dihydro-1H-purine-2,6-dione]
- SI (HCoV-229E [1]): >12.98

Structure (SMILES): COc1cccc(Cn2c(N[C@@H](C)CO)nc3c2c(=O)n(C)c(=O)n3C)c1 [IMB-ZH-2, (S)-8-((1-hydroxypropan-2-yl)amino)-7-(3-methoxybenzyl)-1,3-dimethyl-3,7-dihydro-1H-purine-2,6-dione]
- SI (HCoV-229E [2]): >1.62
- SI (HCoV-229E [1]): >3

Structure (SMILES): C#CCCn1c(=O)c2c(nc(NCCO)n2Cc2cccc(OC)c2)n(C)c1=O [IMB-3-45, 1-(but-3-yn-1-yl)-8-((2-hydroxyethyl)amino)-7-(3-methoxybenzyl)-3-methyl-3,7-dihydro-1H-purine-2,6-dione]
- SI (HCoV-229E [1]): >3

Structure (SMILES): COc1cccc(Cn2c(NCCO)nc3c2c(=O)n(CCNC(=O)OC(C)(C)C)c(=O)n3C)c1 [IMB-3-57, tert-butyl(2-(8-((2-hydroxyethyl)amino)-7-(3-methoxybenzyl)-3-methyl-2,6-dioxo-2,3,6,7-tetrahydro-1H-purin-1-yl)ethyl)carbamate]
- SI (HCoV-229E [1]): >3.00

Structure (SMILES): CCn1c(=O)c2c(nc(NCCO)n2Cc2cccc(OC)c2)n(C)c1=O [IMB-3-46, ethyl-8-((2-hydroxyethyl)amino)-7-(3-methoxybenzyl)-3-methyl-3,7-dihydro-1H-purine-2,6-dione]
- SI (HCoV-229E [1]): >1.29

Structure (SMILES): Cn1c(=O)c2c(nc(NCCO)n2Cc2ccc(F)cc2)n(C)c1=O [IMB-2-2, 7-(4-fluorobenzyl)-8-((2-hydroxyethyl)amino)-1,3-dimethyl-3,7-dihydro-1H-purine-2,6-dione]
- SI (HCoV-229E [1]): >63.49

Structure (SMILES): COC(=O)c1ccc2c(ccn2-c2nc3c(c(=O)n(C)c(=O)n3C)n2Cc2cccc(OC)c2)c1 [IMB-2-32, Methyl-1-(7-(3-methoxybenzyl)-1,3-dimethyl-2,6-dioxo-2,3,6,7-tetrahydro-1H-purin-8-yl)-1H-indole-5-carboxylate]
- SI (HCoV-229E [1]): 9.00

Structure (SMILES): Cn1c(=O)c2c(nc(NCCO)n2Cc2ccc(C(C)(C)C)cc2)n(C)c1=O [IMB-84, 7-(4-(tert-butyl)benzyl)-8-((2-hydroxyethyl)amino)-1,3-dimethyl-3,7-dihydro-1H-purine-2,6-dione]
- SI (HCoV-229E [2]): >21.14
- SI (HCoV-229E [1]): >16.86

Structure (SMILES): Cn1c(=O)c2c(nc(NCCO)n2CC2CCOCC2)n(C)c1=O [IMB-3-19, ((2-hydroxyethyl)amino)-1,3-dimethyl-7-((tetrahydro-2H-pyran-4-yl)methyl)-3,7-dihydro-1H-purine-2,6-dione]
- SI (HCoV-229E [1]): >106.38

Structure (SMILES): Cn1c(=O)c2c(nc(NCCO)n2Cc2cccc(Br)c2)n(C)c1=O [IMB-81, 7-(3-bromobenzyl)-8-((2-hydroxyethyl)amino)-1,3-dimethyl-3,7-dihydro-1H-purine-2,6-dione]
- SI (HCoV-229E [1]): 50.07

Structure (SMILES): COc1ccc(Cn2c(NCCO)nc3c2c(=O)n(C)c(=O)n3C)cc1 [IMB-88]
- SI (HCoV-229E [2]): >11.85
- SI (HCoV-229E [1]): >16.86

Structure (SMILES): Cn1c(=O)c2c(nc(NCCO)n2Cc2cccc(Cl)c2F)n(C)c1=O [IMB-ZHB-4x, 7-(3-chloro-2-fluorobenzyl)-8-((2-hydroxyethyl)amino)-1,3-dimethyl-3,7-dihydro-1H-purine-2,6-dione]
- SI (HCoV-229E [2]): 10.80
- SI (HCoV-229E [1]): 24.08

Structure (SMILES): Cn1c(=O)c2c(nc(NCCO)n2Cc2ccccc2Br)n(C)c1=O [IMB-2-6, 7-(2-bromobenzyl)-8-((2-hydroxyethyl)amino)-1,3-dimethyl-3,7-dihydro-1H-purine-2,6-dione]
- SI (HCoV-229E [1]): >12.59

Structure (SMILES): CCCCc1ccc(Cn2c(NCCO)nc3c2c(=O)n(C)c(=O)n3C)cc1 [IMB-85, 7-(4-butylbenzyl)-8-((2-hydroxyethyl)amino)-1,3-dimethyl-3,7-dihydro-1H-purine-2,6-dione]
- SI (HCoV-229E [2]): >64.1

Structure (SMILES): CC(C)C(=O)OC[C@H]1O[C@@H](n2ccc(NO)nc2=O)[C@H](O)[C@@H]1O [Molnupiravir, reference compound]
- SI (HCoV-229E [2]): >46.73
- SI (HCoV-229E [1]): >104.17

Structure (SMILES): COc1cccc(Cn2c(NC[C@H](C)O)nc3c2c(=O)n(C)c(=O)n3C)c1 [IMB-ZHC-7, (S)-8-((2-hydroxypropyl)amino)-7-(3-methoxybenzyl)-1,3-dimethyl-3,7-dihydro-1H-purine-2,6-dione]
- SI (HCoV-229E [2]): >3
- SI (HCoV-229E [1]): >6.98

Structure (SMILES): CCn1c(=O)c2c(nc(Br)n2Cc2cccc(OC)c2)n(C)c1=O [IMB-3-30, 8-bromo-1-ethyl-7-(3-methoxybenzyl)-3-methyl-3,7-dihydro-1H-purine-2,6-dione]
- SI (HCoV-229E [1]): 36.26

Structure (SMILES): Cn1c(=O)c2c(nc(NCCO)n2Cc2cccc(F)c2F)n(C)c1=O [IMB-82, 7-(2,3-difluorobenzyl)-8-((2-hydroxyethyl)amino)-1,3-dimethyl-3,7-dihydro-1H-purine-2,6-dione]
- SI (HCoV-229E [2]): >3.95
- SI (HCoV-229E [1]): >9

Structure (SMILES): COc1cccc(Cn2c(NCC(N)=O)nc3c2c(=O)n(C)c(=O)n3C)c1 [IMB-ZHC-15, ((7-(3-methoxybenzyl)-1,3-dimethyl-2,6-dioxo-2,3,6,7-tetrahydro-1H-purin-8-yl)amino)acetamide]
- SI (HCoV-229E [2]): >2.28
- SI (HCoV-229E [1]): >3

Structure (SMILES): Cn1c(=O)c2c(nc(NCCO)n2Cc2cccc(Cl)c2)n(C)c1=O [IMB-2-5, 7-(3-chlorobenzyl)-8-((2-hydroxyethyl)amino)-1,3-dimethyl-3,7-dihydro-1H-purine-2,6-dione]
- SI (HCoV-229E [1]): 150.38

Structure (SMILES): COc1cccc(Cn2c(N3CCN(c4ccc(F)cc4)CC3)nc3c2c(=O)n(C)c(=O)n3C)c1 [IMB-2-31, 8-(4-(4-fluorophenyl)piperazin-1-yl)-7-(3-methoxybenzyl)-1,3-dimethyl-3,7-dihydro-1H-purine-2,6-dione]
- SI (HCoV-229E [1]): >5.20

Structure (SMILES): Cc1ccccc1Cn1c(NCCO)nc2c1c(=O)n(C)c(=O)n2C [IMB-68, 8-((2-hydroxyethyl)amino)-1,3-dimethyl-7-(2-methylbenzyl)-3,7-dihydro-1H-purine-2,6-dione]
- SI (HCoV-229E [1]): 139.86

Structure (SMILES): Cn1c(=O)c2c(nc(NCCO)n2Cc2ccsc2)n(C)c1=O [IMB-4-12, 8-((2-hydroxyethyl)amino)-1,3-dimethyl-7-(thiophen-3-ylmethyl)-3,7-dihydro-1H-purine-2,6-dione]
- SI (HCoV-229E [1]): >50.13

Structure (SMILES): Cn1c(=O)c2c(nc(NCCO)n2Cc2c(F)cccc2F)n(C)c1=O [IMB-93, 7-(2,6-difluorobenzyl)-8-((2-hydroxyethyl)amino)-1,3-dimethyl-3,7-dihydro-1H-purine-2,6-dione]
- SI (HCoV-229E [1]): >80.97

Structure (SMILES): CCOC(=O)c1cccc(Cn2c(NCCO)nc3c2c(=O)n(C)c(=O)n3C)c1 [IMB-4-6, ethyl3-((8-((2-hydroxyethyl)amino)-1,3-dimethyl-2,6-dioxo-1,2,3,6-tetrahydro-7H-purin-7-yl)methyl)benzoate]
- SI (HCoV-229E [1]): 80.97

Structure (SMILES): COc1cccc(Cn2c(NCCO)nc3c2c(=O)n(C)c(=O)n3Cc2ccccc2)c1 [IMB-3-81, benzyl-8-((2-hydroxyethyl)amino)-7-(3-methoxybenzyl)-1-methyl-3,7-dihydro-1H-purine-2,6-dione]
- SI (HCoV-229E [1]): >2.08

Structure (SMILES): C#CCn1c(=O)c2c(nc(NCCO)n2Cc2cccc(OC)c2)n(C)c1=O [IMB-3-72, 8-((2-hydroxyethyl)amino)-7-(3-methoxybenzyl)-3-methyl-1-(prop-2-yn-1-yl)-3,7-dihydro-1H-purine-2,6-dione]
- SI (HCoV-229E [1]): >1.73

Structure (SMILES): COc1cccc(Cn2c(-n3ccnc3)nc3c2c(=O)n(C)c(=O)n3C)c1 [IMB-2-26, 8-(1H-imidazol-1-yl)-7-(3-methoxybenzyl)-1,3-dimethyl-3,7-dihydro-1H-purine-2,6-dione]
- SI (HCoV-229E [1]): >5.20

Structure (SMILES): Cn1c(=O)c2c(nc(NCCO)n2Cc2ccc(OC(F)F)cc2)n(C)c1=O [IMB-2-8, 7-(4-(difluoromethoxy)benzyl)-8-((2-hydroxyethyl)amino)-1,3-dimethyl-3,7-dihydro-1H-purine-2,6-dione]
- SI (HCoV-229E [1]): >80.97

Structure (SMILES): COc1cccc(Cn2c(NCCO)nc3c2c(=O)n(Cc2ccc(F)cc2)c(=O)n3C)c1 [IMB-3-13, 1-(4-fluorobenzyl)-8-((2-hydroxyethyl)amino)-7-(3-methoxybenzyl)-3-methyl-3,7-dihydro-1H-purine-2,6-dione]
- SI (HCoV-229E [1]): 2.68

Structure (SMILES): Cn1c(=O)c2c(nc(NCCO)n2Cc2ccc(F)cc2F)n(C)c1=O [IMB-83, 7-(2,4-difluorobenzyl)-8-((2-hydroxyethyl)amino)-1,3-dimethyl-3,7-dihydro-1H-purine-2,6-dione]
- SI (HCoV-229E [1]): >63.49

Structure (SMILES): C=CCn1c(=O)c2c(nc(NCCO)n2Cc2cccc(OC)c2)n(C)c1=O [IMB-3-71, allyl-8-((2-hydroxyethyl)amino)-7-(3-methoxybenzyl)-3-methyl-3,7-dihydro-1H-purine-2,6-dione]
- SI (HCoV-229E [1]): 3.00

Structure (SMILES): Cn1c(=O)c2c(nc(NCCO)n2Cc2cccc([N+](=O)[O-])c2)n(C)c1=O [IMB-79]
- SI (HCoV-229E [1]): >11.60

Structure (SMILES): COc1ccc(Cn2c(=O)c3c(nc(NCCO)n3Cc3cccc(OC)c3)n(C)c2=O)cc1 [IMB-3-15, 8-((2-hydroxyethyl)amino)-7-(3-methoxybenzyl)-1-(4-methoxybenzyl)-3-methyl-3,7-dihydro-1H-purine-2,6-dione]
- SI (HCoV-229E [1]): >11.60

Structure (SMILES): Cn1c(=O)c2c(nc(NCCO)n2Cc2ccc(Cl)cc2)n(C)c1=O [IMB-2-14]
- SI (HCoV-229E [1]): 139.86
